Molecular target: Nicotinic acetylcholine receptor alpha1/beta1/epsilon/delta (Mus musculus, UniProt P04756+P09690+P02716+P20782)
Test: Antagonist activity at mouse alpha1beta1deltaepsilon nACh receptor expressed in Xenopus oocyte assessed as inhibition of acetylcholine-induced response at -70 mV holding potential by voltage-clamp based electrophysiological assay

Sequences of proteins named here, by UniProt entry; tags and fusion partners are left off. Residues count along the entry.
UniProt P04756, 21-457 limits assumed: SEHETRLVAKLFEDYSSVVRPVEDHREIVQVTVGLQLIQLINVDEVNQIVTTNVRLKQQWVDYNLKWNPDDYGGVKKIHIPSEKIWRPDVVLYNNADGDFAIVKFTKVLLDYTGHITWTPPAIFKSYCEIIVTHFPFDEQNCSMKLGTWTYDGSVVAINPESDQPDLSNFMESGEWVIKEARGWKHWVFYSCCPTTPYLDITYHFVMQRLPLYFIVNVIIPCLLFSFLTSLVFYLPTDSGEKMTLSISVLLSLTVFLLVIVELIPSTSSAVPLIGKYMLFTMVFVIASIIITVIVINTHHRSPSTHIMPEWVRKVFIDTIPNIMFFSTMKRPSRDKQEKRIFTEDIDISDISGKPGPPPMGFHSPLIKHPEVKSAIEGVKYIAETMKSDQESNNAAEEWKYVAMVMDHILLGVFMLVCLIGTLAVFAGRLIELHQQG
UniProt P09690, 24-501 limits assumed: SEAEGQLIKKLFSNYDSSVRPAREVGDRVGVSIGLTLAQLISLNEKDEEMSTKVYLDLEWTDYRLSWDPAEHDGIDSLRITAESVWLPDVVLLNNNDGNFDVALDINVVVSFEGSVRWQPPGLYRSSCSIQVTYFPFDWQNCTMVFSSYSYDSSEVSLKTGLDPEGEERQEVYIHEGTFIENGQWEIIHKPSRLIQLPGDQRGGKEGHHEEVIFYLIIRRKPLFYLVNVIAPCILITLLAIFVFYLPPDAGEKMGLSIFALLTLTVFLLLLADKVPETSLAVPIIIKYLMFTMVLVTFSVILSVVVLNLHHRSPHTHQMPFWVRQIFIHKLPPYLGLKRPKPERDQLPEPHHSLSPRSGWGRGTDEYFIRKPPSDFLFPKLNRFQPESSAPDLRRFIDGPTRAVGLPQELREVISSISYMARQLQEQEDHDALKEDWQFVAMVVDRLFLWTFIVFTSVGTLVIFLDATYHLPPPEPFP
UniProt P02716, 25-520 limits assumed: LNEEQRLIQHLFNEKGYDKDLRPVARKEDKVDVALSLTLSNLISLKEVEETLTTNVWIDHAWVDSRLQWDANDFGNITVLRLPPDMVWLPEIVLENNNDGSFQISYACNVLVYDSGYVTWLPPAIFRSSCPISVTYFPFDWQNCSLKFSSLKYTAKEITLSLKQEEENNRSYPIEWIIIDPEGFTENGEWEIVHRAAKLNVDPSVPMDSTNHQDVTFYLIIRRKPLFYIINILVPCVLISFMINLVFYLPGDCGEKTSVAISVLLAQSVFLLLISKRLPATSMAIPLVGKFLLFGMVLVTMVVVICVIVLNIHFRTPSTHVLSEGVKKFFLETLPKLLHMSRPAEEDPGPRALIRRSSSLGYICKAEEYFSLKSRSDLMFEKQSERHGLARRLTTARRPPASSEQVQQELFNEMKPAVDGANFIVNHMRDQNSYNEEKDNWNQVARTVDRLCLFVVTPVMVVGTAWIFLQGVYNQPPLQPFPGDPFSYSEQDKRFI
UniProt P20782, 21-493 limits assumed: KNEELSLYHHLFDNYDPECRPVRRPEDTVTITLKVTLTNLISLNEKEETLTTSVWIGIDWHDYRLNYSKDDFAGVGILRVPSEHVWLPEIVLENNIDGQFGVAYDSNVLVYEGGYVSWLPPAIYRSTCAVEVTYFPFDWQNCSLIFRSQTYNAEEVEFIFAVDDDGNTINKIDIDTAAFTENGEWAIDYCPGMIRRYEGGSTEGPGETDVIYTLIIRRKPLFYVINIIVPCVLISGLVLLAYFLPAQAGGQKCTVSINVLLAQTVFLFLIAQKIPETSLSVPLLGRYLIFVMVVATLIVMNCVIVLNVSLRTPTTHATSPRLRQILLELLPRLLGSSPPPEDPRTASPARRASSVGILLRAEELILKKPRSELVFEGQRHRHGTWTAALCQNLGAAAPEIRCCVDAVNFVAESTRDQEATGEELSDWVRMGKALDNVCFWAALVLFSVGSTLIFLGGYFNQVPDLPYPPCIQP

CC[C@H](C)[C@@H]1NC(=O)[C@H](CCCNC(=N)N)NC(=O)[C@H](CCCNC(=N)N)NC(=O)[C@@H]2CSSC[C@H](NC(=O)[C@H](Cc3ccc(O)cc3)NC(=O)[C@H](CCCNC(=N)N)NC(=O)CNC(=O)[C@H](CO)NC(=O)[C@H](CO)NC(=O)[C@H](CCCNC(=N)N)NC(=O)[C@@H](NC(=O)[C@@H](N)[C@@H](C)O)CSSC[C@@H](C(=O)N[C@H](C(=O)O)C(C)C)NC(=O)[C@H](C)NC(=O)[C@H](CC(=O)O)NC(=O)[C@H]([C@@H](C)O)NC1=O)C(=O)N[C@@H](C)C(=O)N[C@@H](CO)C(=O)N1CCC[C@H]1C(=O)N[C@@H](Cc1ccc(O)cc1)C(=O)N[C@@H](CC(=O)O)C(=O)N[C@@H](CCCNC(=N)N)C(=O)N[C@@H](CCCNC(=N)N)C(=O)N[C@@H](CCCNC(=N)N)C(=O)N[C@@H](CCCNC(=N)N)C(=O)N[C@@H](Cc1ccc(O)cc1)C(=O)N2
IC50: 470 nM

CC[C@H](C)[C@@H]1NC(=O)[C@H](CCCNC(=N)N)NC(=O)[C@H](CCCNC(=N)N)NC(=O)[C@@H]2CSSC[C@H](NC(=O)[C@H](Cc3ccc(O)cc3)NC(=O)[C@H](CCCNC(=N)N)NC(=O)CNC(=O)[C@H](CO)NC(=O)[C@H](CO)NC(=O)[C@H](CCCNC(=N)N)NC(=O)[C@@H](NC(=O)[C@H](C)N)CSSC[C@@H](C(=O)N[C@H](C(=O)O)C(C)C)NC(=O)[C@H](C)NC(=O)[C@H](C)NC(=O)[C@H]([C@@H](C)O)NC1=O)C(=O)N[C@@H](CCCNC(=N)N)C(=O)N[C@@H](CO)C(=O)N1CCC[C@H]1C(=O)N[C@@H](Cc1ccc(O)cc1)C(=O)N[C@@H](CC(=O)O)C(=O)N[C@@H](CCCNC(=N)N)C(=O)N[C@@H](CCCNC(=N)N)C(=O)N[C@@H](CCCNC(=N)N)C(=O)N[C@@H](CCCNC(=N)N)C(=O)N[C@@H](Cc1ccc(O)cc1)C(=O)N2
IC50: 1530 nM

CC[C@H](C)[C@@H]1NC(=O)[C@H](CCCNC(=N)N)NC(=O)[C@H](CCCNC(=N)N)NC(=O)[C@@H]2CSSC[C@H](NC(=O)[C@H](C)NC(=O)[C@H](CCCNC(=N)N)NC(=O)CNC(=O)[C@H](CO)NC(=O)[C@H](CO)NC(=O)[C@H](CCCNC(=N)N)NC(=O)[C@@H](NC(=O)[C@@H](N)[C@@H](C)O)CSSC[C@@H](C(=O)N[C@H](C(=O)O)C(C)C)NC(=O)[C@H](C)NC(=O)[C@H](CC(=O)O)NC(=O)[C@H]([C@@H](C)O)NC1=O)C(=O)N[C@@H](CCCNC(=N)N)C(=O)N[C@@H](CO)C(=O)N1CCC[C@H]1C(=O)N[C@@H](Cc1ccc(O)cc1)C(=O)N[C@@H](CC(=O)O)C(=O)N[C@@H](CCCNC(=N)N)C(=O)N[C@@H](CCCNC(=N)N)C(=O)N[C@@H](CCCNC(=N)N)C(=O)N[C@@H](CCCNC(=N)N)C(=O)N[C@@H](Cc1ccc(O)cc1)C(=O)N2
IC50: 610 nM

CC[C@H](C)[C@@H]1NC(=O)[C@H](CCCNC(=N)N)NC(=O)[C@H](CCCNC(=N)N)NC(=O)[C@@H]2CSSC[C@H](NC(=O)[C@H](Cc3ccc(O)cc3)NC(=O)[C@H](CCCNC(=N)N)NC(=O)CNC(=O)[C@H](CO)NC(=O)[C@H](CO)NC(=O)[C@H](CCCNC(=N)N)NC(=O)[C@@H](NC(=O)[C@@H](N)[C@@H](C)O)CSSC[C@@H](C(=O)N[C@H](C(=O)O)C(C)C)NC(=O)[C@H](C)NC(=O)[C@H](CC(=O)O)NC(=O)[C@H]([C@@H](C)O)NC1=O)C(=O)N[C@@H](CCCNC(=N)N)C(=O)N[C@@H](CO)C(=O)N1CCC[C@H]1C(=O)N[C@@H](Cc1ccc(O)cc1)C(=O)N[C@@H](CC(=O)O)C(=O)N[C@@H](CCCNC(=N)N)C(=O)N[C@@H](CCCNC(=N)N)C(=O)N[C@@H](CCCNC(=N)N)C(=O)N[C@@H](C)C(=O)N[C@@H](Cc1ccc(O)cc1)C(=O)N2
IC50: 650 nM

CC[C@H](C)[C@@H]1NC(=O)[C@H](CCCNC(=N)N)NC(=O)[C@H](CCCNC(=N)N)NC(=O)[C@@H]2CSSC[C@H](NC(=O)[C@H](Cc3ccc(O)cc3)NC(=O)[C@H](CCCNC(=N)N)NC(=O)CNC(=O)[C@H](CO)NC(=O)[C@H](CO)NC(=O)[C@H](CCCNC(=N)N)NC(=O)[C@@H](NC(=O)[C@@H](N)[C@@H](C)O)CSSC[C@@H](C(=O)N[C@H](C(=O)O)C(C)C)NC(=O)[C@H](C)NC(=O)[C@H](CC(=O)O)NC(=O)[C@H]([C@@H](C)O)NC1=O)C(=O)N[C@@H](CCCNC(=N)N)C(=O)N[C@@H](CO)C(=O)N1CCC[C@H]1C(=O)N[C@@H](C)C(=O)N[C@@H](CC(=O)O)C(=O)N[C@@H](CCCNC(=N)N)C(=O)N[C@@H](CCCNC(=N)N)C(=O)N[C@@H](CCCNC(=N)N)C(=O)N[C@@H](CCCNC(=N)N)C(=O)N[C@@H](Cc1ccc(O)cc1)C(=O)N2
IC50: 520 nM
